Measured values from several laboratories, pooled; numbers as filed in NIAID ChemDB.

All rows: growth or infection tests; agent: Human cytomegalovirus

Conditions beyond the fields shown may differ between rows. ECn is the concentration giving n% inhibition of infection, replication or growth. An empty or dashed field is not shown.

compound | cell line | strain or isolate | read by | measure | value
O=c1[nH]c(=O)n([C@H]2C[C@H](O)[C@@H](COP3(=O)OCc4ccccc4O3)O2)cc1/C=C/Br | HELF | AD169 | plaque count | EC50 | >128 µg/mL
Nc1ncnc2c1ccn2[C@H]1C[C@H](O)[C@@H](COP(=O)(O)COC(=O)[C@@H](N)CC(=O)O)O1 | HEL | AD169 | - | EC50 | >100 µM
O=C1c2ccccc2C(=O)c2c1ccc(O)c2O | MRC-5 | Ganciclovir-resistant | plaque count | EC50 | 3.7 µM
OCC1OC(n2c(SCc3ccccc3)nc3nc4cc(Cl)c(Cl)cc4nc32)C(O)C1O | HFF | TOWNE | plaque count | EC50 | 4.2 µM
Cc1ccc(Cn2c(=O)ccn(CC#N)c2=O)cc1 | - | AD169 | - | EC50 | 78 µM
Nc1nccc2c1ncn2[C@H]1C[C@H](O)[C@@H](COP(=O)(O)COC(=O)[C@@H](N)CC(=O)O)O1 | HEL | AD169 | - | EC50 | >100 µM
CC(=O)N(O)CCCCCNC(=O)CCC(=O)N(O)CCCCCNC(=O)CCC(=O)N(O)CCCCCN | HEL | AD169 | plaque count | EC50 | 4.4 µg/mL
CC1=CC(S(=O)(=O)O)=C(Nc2cccc3c2C(=O)c2cccc(Nc4ccc(C)cc4S(=O)(=O)O)c2C3=O)CC1 | HFF | AD169 | cytopathic effect | EC50 | 10 µM
Cc1ccc(S(=O)(=O)OC[C@@]2(O)CCC34C[C@H]2C[C@@H]3CC[C@H]2[C@](C)(CO)[C@H](O)CC[C@@]24C)cc1 | - | - | plaque count | EC50 | 1.1 µM
Nc1ccnc2c1ncn2C1CC(O)C(CO)O1 | HEL | DAVIS | - | EC50 | >100 µM
Nc1nc(N)c2ncn(C[C@@H](CO)OCP(=O)(O)O)c2n1 | - | - | - | EC50 | 7.8 µM
Nc1ncnc2c1ccn2[C@H]1C[C@H](O)[C@@H](CO)O1 | HEL | AD169 | - | EC50 | >100 µM
O=C1c2cccc(O)c2C(=O)c2cccc(O)c21 | MRC-5 | AD169 | plaque count | EC50 | >41.6 µM
Cc1cc(C)cc(Cn2c(=O)ccn(CCc3ccccc3)c2=O)c1 | - | AD169 | - | EC50 | 22 µM
Nc1ncnc2ncn(COCCCl)c12 | VERO | AD169 | cytopathic effect | EC50 | >128 µg/mL
Nc1nc2c(ncn2COC(CO)CO)c(=O)[nH]1 | HFF | AD169 | plaque count | EC50 | 0.78 µM
CN1C(=O)c2c(c3c4ccccc4[nH]c3c3[nH]c4ccccc4c23)C1=O | VERO | - | plaque count | EC50 | >100 µM
Cc1cccc2c1OP(=O)(OC[C@H]1O[C@@H](n3cc(/C=C/Br)c(=O)[nH]c3=O)C[C@@H]1O)OC2 | HELF | AD169 | plaque count | EC50 | >128 µg/mL
Cc1cc(O)cc(O)c1CC(=O)O | HEL | AD169 | cytopathic effect | EC50 | >25 µg/mL
Nc1nc(NC2CC2)c2ncn(/C=C3/C[C@@H]3CO)c2n1 | HFF | AD169 | plaque count | EC50 | 1.9 µM
CCNc1ccc(NCC)c2c1C(=O)c1ccccc1C2=O | HFF | AD169 | cytopathic effect | EC50 | >10 µM
O=C(NCCc1c[nH]c2ccccc12)C1=Cc2ccncc2CC1 | HFF | D-10 C4 | plaque count | EC50 | 0.6 µM
Nc1nc(Cl)nc2c1ncn2/C=C1\CC1CO | HFF | AD169 | cytopathic effect | EC50 | 231 µM
O=C(O)P(=O)(O)O | - | - | - | EC50 | 15 µM
Nc1nc2c(ncn2COC(CO)CO)c(=O)[nH]1 | - | - | - | EC50 | 8 µM
CC(=O)N(C)c1ccc(Nc2cc(S(=O)(=O)O)c(N)c3c2C(=O)c2ccccc2C3=O)cc1 | HFF | AD169 | cytopathic effect | EC50 | >200 µM
Nc1nc2c(ncn2COC(CO)CO)c(=O)[nH]1 | MRC-5 | AD169 | plaque count | EC90 | 7.3 µM
CC(=O)O[C@H]1C[C@H](n2cc(/C=C/Br)c(=O)[nH]c2=O)O[C@@H]1COP1(=O)OCc2cccc(C)c2O1 | HELF | AD169 | plaque count | EC50 | >128 µg/mL
Nc1c(S(=O)(=O)O)cc(Nc2ccc(S(=O)(=O)O)c(Nc3nc(Cl)nc(Cl)n3)c2)c2c1C(=O)c1ccccc1C2=O | HFF | AD169 | cytopathic effect | EC50 | 30 µM
Oc1cccc(O)c1O | HEL | DAVIS | cytopathic effect | EC50 | 7.8 µg/mL
Nc1c(N=Nc2ccc([N+](=O)[O-])cc2)c(S(=O)(=O)O)cc2cc(S(=O)(=O)O)c(N=Nc3ccccc3)c(O)c12 | HFF | AD169 | cytopathic effect | EC50 | >50 µM
COC(=O)C(C)NOP(OC[C@H]1C/C1=C/n1cnc2c(N)[nH]c(=O)nc21)Oc1ccccc1 | HFF | AD169 | cytopathic effect | EC50 | >40.9 µM
C[C@@]1(CO)[C@H](O)CC[C@@]2(C)[C@H]1CC[C@H]1C[C@@H]3CC12CC=C3CO | - | - | plaque count | EC50 | 3.4 µM
O=C1NC(=O)c2c1c1c3cc(Cl)ccc3[nH]c1c1[nH]c3ccc(Cl)cc3c21 | VERO | - | plaque count | EC50 | 0.16 µM
CC(C)(C)C(=O)OCOC(=O)CN(CC(=O)OCOC(=O)C(C)(C)C)P(=O)(OC[C@H]1O[C@@H](n2cnc3c(Cl)nccc32)C[C@@H]1O)Oc1ccccc1 | HEL | DAVIS | - | EC50 | >100 µM
O=c1c(-c2ccc(O)cc2)coc2cc(O)cc(O)c12 | HEF | AD169 | plaque count | EC50 | 31.1 µM
N#CCn1ccc(=O)n(Cc2cc(Cl)cc(Cl)c2)c1=O | - | AD169 | - | EC50 | 64 µM
Nc1ncnc2c1ncn2CCOCP(=O)(O)O | - | - | - | EC50 | 37 µM
Cc1cccc2c1OP(=O)(OC[C@H]1O[C@@H](n3cc(/C=C/Br)c(=O)[nH]c3=O)C[C@@H]1OC(=O)C(C)C)OC2 | HELF | AD169 | plaque count | EC50 | >128 µg/mL
C[C@H]1O[C@@H](n2c(Cl)nc3cc(Cl)c(Cl)cc32)[C@H](O)C1O | - | - | - | EC50 | 0.35 µM
Cc1cc(O)c2c(c1)/C(=C1\c3cc(C)cc(O)c3C(=O)c3c(O)cc(O)cc31)c1cc(O)cc(O)c1C2=O | MRC-5 | Ganciclovir-resistant | plaque count | EC50 | 0.8 µM
C[C@@]1(CO)[C@H](O)CC[C@@]2(C)[C@H]1CC[C@H]1C[C@@H]3C[C@@]12CC[C@@]3(C)O | HFF | - | plaque count | EC50 | >500 µM
Nc1ccn(C[C@@H](CO)OCP(=O)(O)O)c(=O)n1 | HEL | U9070 (ganciclovir-resistant) | plaque count | EC50 | 0.3 µg/mL
O=c1[nH]c(=O)n([C@@H]2O[C@H](CO)[C@@H](O)[C@@H]2O)cc1/C=C/Br | - | - | - | EC50 | >100 µM
O=C(O)Cc1cc(O)ccc1O | HEL | DAVIS | cytopathic effect | EC50 | 1.5 µg/mL
COc1ccc2[nH]c3c4[nH]c5ccc(OC)cc5c4c4c(c3c2c1)C(=O)NC4=O | VERO | - | plaque count | EC50 | 10 µM
Nc1ccn(C[C@H]2COP(=O)(O)CO2)c(=O)n1 | - | - | - | EC50 | 0.11 µM
Cc1cc(C)cc(Cn2c(=S)ccn(Cc3ccccc3)c2=O)c1 | - | AD169 | - | EC50 | 9.5 µM
Cc1cc(C)c2c(c1)COP(=O)(OC[C@H]1O[C@@H](n3cc(/C=C/Br)c(=O)[nH]c3=O)C[C@@H]1O)O2 | HELF | AD169 | plaque count | EC50 | >128 µg/mL
O=c1ccn(Cc2c(F)cccc2F)c(=O)[nH]1 | - | AD169 | - | EC50 | >210 µM
O=C1NCc2c1c1c3ccccc3[nH]c1c1[nH]c3ccccc3c21 | HEF | A6245 | plaque count | EC50 | 0.17 µM
Cc1cc(C)cc(Cn2c(=S)ccn(CC#N)c2=O)c1 | - | AD169 | - | EC50 | 53 µM
Nc1nc(N)c2ncn(/C=C3/C[C@H]3CO)c2n1 | HFF | AD169 | plaque count | EC50 | >431 µM
CC(C)Nc1nc2nc3cc(Cl)c(Cl)cc3nc2n1C1OC(CO)C(O)C1O | KB | TOWNE | plaque count | EC50 | 32 µM
CC(C)Nc1nc2cc(Cl)c(Cl)cc2n1[C@H]1O[C@@H](CO)[C@H](O)[C@@H]1O | MRC-5 | AD169 | plaque count | EC90 | 23.56 µM
CC(=O)CCC(=O)O[C@H]1C[C@H](n2cc(/C=C/Br)c(=O)[nH]c2=O)O[C@@H]1COP1(=O)OCc2cccc(C)c2O1 | HELF | AD169 | plaque count | EC50 | >128 µg/mL
Cn1c2ccccc2c2c3c(c4c5ccccc5n(CCC#N)c4c21)CNC3=O | HEF | AD169 | plaque count | EC50 | 0.04 µM
O=C1c2ccccc2C(=O)c2c(O)ccc(O)c21 | MRC-5 | AD169 | plaque count | EC50 | >41.6 µM
Nc1ccn(C[C@@H](CO)OCP(=O)(O)O)c(=O)n1 | - | - | - | EC50 | 0.03 µM
O=C1NC(=O)c2c1c1c3ccc(O)cc3[nH]c1c1[nH]c3cc(O)ccc3c21 | VERO | - | plaque count | EC50 | 4.6 µM
Cc1cccc2c1OP(=O)(OC[C@H]1O[C@@H](n3cc(/C=C/Br)c(=O)[nH]c3=O)C[C@@H]1OC(=O)[C@@H](N)C(C)C)OC2 | HELF | AD169 | plaque count | EC50 | >128 µg/mL
O=c1[nH]c(=O)n(C2CC(O)C(CO)O2)cc1/C=C/Br | HEL | DAVIS | - | EC50 | >100 µM
Cc1cc(Nc2ccc(O)c3c2C(=O)c2ccccc2C3=O)cc(S(=O)(=O)O)c1 | HFF | AD169 | cytopathic effect | EC50 | 150 µM
O=C(O)C[C@H](NCCN[C@@H](CC(=O)O)C(=O)O)C(=O)O | HEL | LY9990 (ganciclovir-resistant) | plaque count | EC50 | 7.6 µg/mL
OCC1OC(n2c(NC3CC3)nc3nc4cc(Cl)c(Cl)cc4nc32)C(O)C1O | KB | TOWNE | plaque count | EC50 | 32 µM
Cc1cccc(C)c1Cn1c(=O)ccn(CC#N)c1=O | - | AD169 | - | EC50 | >186 µM
Nc1[nH]c(=O)nc2c1ncn2/C=C1/C[C@H]1CO | HFF | AD169 | cytopathic effect | EC50 | >85.8 µM
Cc1c(CC(=O)O)ccc(O)c1O | HEL | DAVIS | cytopathic effect | EC50 | >25 µg/mL
Nc1nc(NC2CC2)c2ncn(/C=C3/C[C@H]3CO)c2n1 | HFF | AD169 | plaque count | EC50 | >74 µM
O=C1NC(=O)c2c1c1c3ccccc3[nH]c1c1[nH]c3ccccc3c21 | VERO | - | plaque count | EC50 | 0.2 µM
O=C(O)Cc1ccc(O)c(O)c1 | HEL | DAVIS | cytopathic effect | EC50 | 2.5 µg/mL

A second listing of 10 rows from above:

| compound | cell line | strain or isolate | read by | measure | value |
|---|---|---|---|---|---|
| CC(=O)CCC(=O)O[C@H]1C[C@H](n2cc(/C=C/Br)c(=O)[nH]c2=O)O[C@@H]1COP1(=O)OCc2cccc(C)c2O1 | HELF | AD169 | plaque count | EC50 | >128 µg/mL |
| Nc1ncnc2c1ccn2[C@H]1C[C@H](O)[C@@H](CO)O1 | HEL | AD169 | - | EC50 | >100 µM |
| Nc1ncnc2c1ncn2CCOCP(=O)(O)O | - | - | - | EC50 | 37 µM |
| O=C1NC(=O)c2c1c1c3ccccc3[nH]c1c1[nH]c3ccccc3c21 | VERO | - | plaque count | EC50 | 0.2 µM |
| Nc1[nH]c(=O)nc2c1ncn2/C=C1/C[C@H]1CO | HFF | AD169 | cytopathic effect | EC50 | >85.8 µM |
| CC(=O)O[C@H]1C[C@H](n2cc(/C=C/Br)c(=O)[nH]c2=O)O[C@@H]1COP1(=O)OCc2cccc(C)c2O1 | HELF | AD169 | plaque count | EC50 | >128 µg/mL |
| Nc1c(S(=O)(=O)O)cc(Nc2ccc(S(=O)(=O)O)c(Nc3nc(Cl)nc(Cl)n3)c2)c2c1C(=O)c1ccccc1C2=O | HFF | AD169 | cytopathic effect | EC50 | 30 µM |
| Nc1c(N=Nc2ccc([N+](=O)[O-])cc2)c(S(=O)(=O)O)cc2cc(S(=O)(=O)O)c(N=Nc3ccccc3)c(O)c12 | HFF | AD169 | cytopathic effect | EC50 | >50 µM |
| Cc1cc(C)cc(Cn2c(=O)ccn(CCc3ccccc3)c2=O)c1 | - | AD169 | - | EC50 | 22 µM |
| Cc1cc(Nc2ccc(O)c3c2C(=O)c2ccccc2C3=O)cc(S(=O)(=O)O)c1 | HFF | AD169 | cytopathic effect | EC50 | 150 µM |